Tested on: upper gut transit
Assay: Upper gut transit time by lactulose breath hydrogen test after oleate or oleic acid
Type: in vivo, human
Settings: 4 grams of oleic acid
Excerpt: In a preliminary study, five patients with persistent diarrhea for 3 to 22 months, (one each due to vagal denervation, ileal resection for Crohn's disease, and vagotomy and antrectomy, and two due to idiopathic causes) were studied. […] This test relies on the metabolism of certain carbohydrate materials (e.g. lactulose) by the microbial flora within the caecum. By generating gas which can be detected in the expired air, it is possible to make some estimation about the initial arrival of the administered material within the colon.
Each patient received orally in random order, 0, 1.6 or 3.2 g of sodium oleate in 25 mL Ensure (Ross), followed by 100 mL water. Thirty minutes after each dose of oleate, patients received 10 g lactulose orally, followed by 25 mL water. Breath samples were collected in commercially available breath testing bags (Quintron, Menomonee Falls, Wis.) every 10-15 minutes, and the hydrogen content of the samples was measured using a breath analyzer (Microlyzer Model 12, Quintron Instruments, Menomonee Falls, Wis.), calibrated against gas samples of known hydrogen concentration. With a syringe, a 40-mL sample of the expired breath was withdrawn from the collection bag and analyzed immediately for hydrogen concentration (ppm). […] Data were further analyzed using 1-way repeated measures analysis of variance (ANOVA)(See Table 4). […]

For `CCCCCCCC/C=C\CCCCCCCC(=O)O` [oleic acid], the “mean AUC” value (IBD patients) was 1244.9±250.4 and the “mean AUC” value (normal subjects) was 1873.3±330.5.

From patent US9358276B2, “Methods of diagnosing and treating small intestinal bacterial overgrowth (SIBO) and SIBO-related conditions” (Cedars-Sinai Medical Center, priority 1999, dated 2016)
